For one compound, activation results are on record in paper PMC6544370 (Nature, 2019).

The chains behind the UniProt entries cited, without tags or fusion partners.
UniProt Q9KVG8, whole entry: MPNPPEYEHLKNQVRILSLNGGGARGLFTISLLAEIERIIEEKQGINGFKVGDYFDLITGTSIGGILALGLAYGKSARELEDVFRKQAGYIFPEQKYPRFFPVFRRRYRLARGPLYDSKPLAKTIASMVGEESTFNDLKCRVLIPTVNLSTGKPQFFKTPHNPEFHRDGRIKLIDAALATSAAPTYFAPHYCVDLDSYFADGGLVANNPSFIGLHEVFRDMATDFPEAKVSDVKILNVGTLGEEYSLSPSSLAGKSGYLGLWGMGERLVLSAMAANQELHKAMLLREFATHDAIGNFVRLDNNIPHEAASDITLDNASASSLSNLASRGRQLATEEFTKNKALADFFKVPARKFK

The assay has as its target CapV (cGAMP activated phospholipase in Vibrio) (Vibrio cholerae, UniProt Q9KVG8). Conditions: 250 nM enzyme, 0.025-2.5 μM nucleotide, room temperature; activator.

Take `Nc1nc2c(ncn2[C@@H]2O[C@@H]3COP(=O)(O)O[C@H]4[C@@H](O)[C@H](n5cnc6c(N)ncnc65)O[C@@H]4COP(=O)(O)O[C@H]3[C@H]2O)c(=O)[nH]1` [3′3′ cGAMP]: the activation entry is on record as “only activated by the nucleotide synthesized from their adjacently encoded nucleotidyltransferase”.
